Biological target: T1, Porphyromonas gingivalis strain W83 whole cells (surface gingipain/adhesin/hemagglutinin complex)
T1 construct: also called whole P. gingivalis cells
Test: surface plasmon resonance, whole cells W83, row of 100 nM

B1: KB001 (antibody, V domains shown)
VH: EVQLKQSGPGLVAPSQSLSITCTVSGFSLSIYSVHWVRQPPGKGLEWLGMIWGGGSSDYNSALKSRLSISKDNSKSQVFLKMNSLQTDDTAMYYCARNGNFYAMDYWGQGTSVTVSS
VL: QIVLTQSPAIMSASLGERVTMTCTASSSVSSSFLHWYQQKPGSSPQLWIYSTSNLASGVPARFSGSGSGTSYSLTISSMEAEDAATYYCHQYHHSPYIYTFGGGTKLEIKR
notes: also called KB001-WT-Ab; parental antibody
With B1 the koff was 0.000219 s⁻¹ and the kon was 19200 M⁻¹ s⁻¹.
